Source: publication PMC7369900 (International Journal of Molecular Sciences, 2020)

Columns and labels:
human red blood cells = assay: Hemolysis assay; settings: selectivity index class
[1] = system: Gram-positive and Gram-negative bacteria; assay type: cell-based; settings: selectivity index class
Experimental: The antibacterial activity of TP10-NH2-based conjugates, as well as its constituents, was evaluated by microdilution assay in Mueller Hinton broth, MHB (Table 1). […] There are, however, some exceptions. […] Its activity against two other tested bacteria was somewhat lower though.
The antibacterial activity (bacteriostatic: MIC and bactericidal: MBC) of the tested compounds was determined in MHB (Mueller Hinton Broth, Sigma Aldrich, St. Louis, MO, USA) using a serial two-fold dilution method in 96-well microtiter plates according to CLSI recommendations, described in M07-A10 document. The exact conditions have been described previously. All experiments were performed in three replicates. The MIC90 and MIC50 values were defined as the concentrations of compounds tested that caused a 90% or 50% reduction of growth, respectively, comparing to the drug-free control.

Candida glabrata cells = assay: Cellular uptake of fluorescent probes (fluorescence microscopy); assay type: cell-based; settings: time class
Candida albicans cells = assay: as above; assay type: cell-based; settings: for Cellular Uptake Fungal C. albicans Wall: time class; for Uptake and accumulation in Candida albicans cells: fluorescent probes 40 μM, 30 min, PBS

Compound	Hemolysis Selectivity HEK 293 (human red blood cells)	Hemolysis Selectivity HL-60 (human red blood cells)	Antibacterial Selectivity HEK 293 LLC-PK1 for Gram + [1]	Cellular Uptake Fungal C. glabrata Nucleus (Candida glabrata cells)	Cellular Uptake Fungal C. albicans Wall (Candida albicans cells)	Uptake and accumulation in Candida albicans cells (Candida albicans cells)
CC[C@H](C)[C@H](NC(=O)[C@H](CCCCN)NC(=O)[C@H](CCCCN)NC(=O)[C@H](C)NC(=O)[C@H](CC(C)C)NC(=O)[C@H](C)NC(=O)[C@H](C)NC(=O)[C@H](CC(C)C)NC(=O)[C@H](C)NC(=O)[C@H](CCCCN)NC(=O)[C@H](CC(C)C)NC(=O)[C@H](CC(N)=O)NC(=O)[C@@H](NC(=O)[C@H](CCCCN)NC(=O)CNC(=O)[C@H](CC(C)C)NC(=O)[C@H](CC(C)C)NC(=O)[C@H](Cc1ccc(O)cc1)NC(=O)CNC(=O)[C@H](C)NC(=O)[C@@H](N)CS)[C@@H](C)CC)C(=O)N[C@@H](CC(C)C)C(N)=O [CTP10-NH2]	++ (++ SI > 4)	+ (+ SI > 1)				
CC[C@H](C)[C@H](NC(=O)[C@H](CCCCN)NC(=O)[C@H](CCCCN)NC(=O)[C@H](C)NC(=O)[C@H](CC(C)C)NC(=O)[C@H](C)NC(=O)[C@H](C)NC(=O)[C@H](CC(C)C)NC(=O)[C@H](C)NC(=O)[C@H](CCCCN)NC(=O)[C@H](CC(C)C)NC(=O)[C@H](CC(N)=O)NC(=O)[C@@H](NC(=O)[C@H](CCCCN)NC(=O)CNC(=O)[C@H](CC(C)C)NC(=O)[C@H](CC(C)C)NC(=O)[C@H](Cc1ccc(O)cc1)NC(=O)CNC(=O)[C@H](C)NC(=O)CN1CCN(c2cc3c(cc2F)c(=O)c(C(=O)O)cn3C2CC2)CC1)[C@@H](C)CC)C(=O)N[C@@H](CC(C)C)C(N)=O [Compound 1, CIP-CH2CO-TP10-NH2]			+ (+ SI > 1)			
CC[C@H](C)[C@H](NC(=O)[C@H](CCCCN)NC(=O)[C@H](CCCCN)NC(=O)[C@H](C)NC(=O)[C@H](CC(C)C)NC(=O)[C@H](C)NC(=O)[C@H](C)NC(=O)[C@H](CC(C)C)NC(=O)[C@H](C)NC(=O)[C@H](CCCCN)NC(=O)[C@H](CC(C)C)NC(=O)[C@H](CC(N)=O)NC(=O)[C@@H](NC(=O)[C@H](CCCCN)NC(=O)CNC(=O)[C@H](CC(C)C)NC(=O)[C@H](CC(C)C)NC(=O)[C@H](Cc1ccc(O)cc1)NC(=O)CNC(=O)[C@H](C)N)[C@@H](C)CC)C(=O)N[C@@H](CC(C)C)C(N)=O [TP10-NH2, transportan 10, reference compound]	- (- not detected within 2 h)	- (- not detected within 2 h)	++ (++ SI > 10)	- (- not detected within 2 h)	+ (+ within 1 h)	
CIP(Cf)						did not enter these cells
CIP-CH2CO-TP10(Cf)-NH2 [Compound 7]				- (- not detected within 2 h)	+ (+ within 1 h)	transported to and accumulated in
TP10(Cf)-NH2						transported to and accumulated in
